Assay results published in paper PMC7493962, “Structure-based inhibitors targeting the alpha-helical domain of the Spiroplasma melliferum histone-like HU protein” (Scientific Reports, 2020).
Construct, isoform or probe ends are uncertain for at least one entry. For part of these data: At least one verdict was read from the data and is not stated in words by the source.

Key:
[1] = tested on: HUSpm (Spiroplasma melliferum); test: NMR CSP/CIP; settings: NMR: 50 mM sodium phosphate pH 7.2, 0.1 mM NaN3, 30 C; recombinant protein
[2] = tested on: HUMgal (Mycoplasma gallisepticum); test: EMSA; settings: no BDF inhibitor; EMSA: 20 mM Tris-HCl pH 8.0, 150 mM NaCl, 7% glycerol, 10 nM DNA, 10 min, temperature not stated; recombinant protein; label: 5'-HEX on strand 1
[3] = tested on: HUSpm_K35T (Spiroplasma melliferum); test: EMSA; settings: no BDF4 inhibitor; EMSA: 20 mM Tris-HCl pH 8.0, 150 mM NaCl, 7% glycerol, 10 nM DNA, 10 min, temperature not stated; recombinant protein; label: 5'-HEX on strand 1

Sequence | binding result [1] | binding result [2] | binding result [3]
AGTCTAGAGTGCAG (double strand) [DS14] | binds |  | 
AGTCTAGAGTGCAAGTTGAGTCCTT / AAGGACTCAACTGCACTCTAGACT [DS24a (24a)] |  | binds | binds
